From doi:10.1101/2020.09.01.277368v1

Tested on: CC(=O)SCCNC(=O)CCNC(=O)[C@H](O)C(C)(C)COP(=O)(O)OP(=O)(O)OC[C@H]1O[C@@H](n2cnc3c(N)ncnc32)[C@H](O)[C@@H]1OP(=O)(O)O
Experiment: purified protein

Substance: MetA (HSAT, homoserine acetyl transferase, Rv3341) (Mycobacterium tuberculosis H37Rv)
- Km: 328 µM
